Compound potency records, mixed from different reports. Data source: NIAID ChemDB in PubChem.

ECn is the concentration giving n% inhibition of infection, replication or growth. MIC50, MIC90 and the like: level of inhibition, or share of isolates inhibited. An empty or dashed field is not shown. ICn: concentration for n% inhibition. Lines come from different laboratories, so protocols vary. CCn: concentration that lowers growth or viability of the cells by n%. Percent inhibition refers to the dose given; in toxicity tests it is the harm to the cells.

smiles	tested at	cells	read-out	kind	method	target	organism	strain	value
Fc1cc(-c2cncc(N3CCN(c4ccccc4F)CC3)n2)ccc1-c1ccccc1	-	-	IC50	target	-	UL97 kinase	Cytomegalovirus	-	<100 µM
COc1ccc(NC(=O)NCCc2ccc3c(n2)NCCC3)cn1	-	PBMC	CC50	toxicity	-	-	-	-	50 µM
O=C(Cn1c(-c2nccs2)nc2ccccc21)Nc1ccc(Cl)cc1	-	-	IC50	host protein	fluorescence / absorbance	IMPDH2	Human	-	≥40 µM
O=c1cc(NC(CN2CCOCC2)c2ccccc2)c2cccnc2n1O	-	HeLa	CC50	toxicity	-	-	-	-	<100 µM
COc1cc(CN(C)c2ccc3nc(N)nc(N)c3c2Cl)cc(OC)c1OC	-	-	IC50	target	-	Dihydrofolate reductase	Cryptosporidium parvum	TYPE 1	0.038 µM
O=c1cc(Nc2ccc(-c3ccccc3)cc2)c2cccnc2n1O	-	HeLa	CC50	toxicity	-	-	-	-	<100 µM
Fc1ccc(N2CCCCC2)c(NC(=S)c2ccncc2)c1	10 µM	-	inhibition	host protein	kinase activity	TrkA	-	-	38%
CC(C)(O/N=C(\C(=O)NCC(O)O)c1csc(N)n1)C(=O)O	-	-	IC50	host protein	-	DNA polymerase beta	Bos primigenius	-	0.01 µM
O=C(Nc1ccc2cc(S(=O)(=O)[O-])cc(S(=O)(=O)[O-])c2c1)c1ccccc1	10 µg/mL	Human amnion AV3 cells	inhibition	culture	cytopathic effect	-	Herpes simplex virus	-	33%
O=C1Oc2cc(O)c(O)cc2C2C(c3ccc(O)c(O)c3)=C3c4cc(O)c(O)cc4C=CN3C12	-	-	IC50	host protein	-	Topoisomerase	Molluscum contagiosum virus	-	0.23 µM
O=c1[nH]cnc2c1ncn2CCOCCP(=O)(O)O	-	-	Ki	host protein	absorbance	Hypoxanthine-guanine phosphoribosyltransferase	Human	-	3.6 µM
O=S(=O)(O)c1cc(O)c2c(O)c(N=Nc3ccccc3)c(S(=O)(=O)O)cc2c1	10 µg/mL	Human conjunctiva cells	inhibition	culture	cytopathic effect	-	Herpes simplex virus	-	90%
COc1cccc(CNc2cc(=O)n(O)c3ncccc23)c1	-	HeLa	CC50	toxicity	-	-	-	-	<100 µM
Cc1ccc(-c2ccc(C=C3SC(=S)N(CCC(=O)O)C3=O)o2)s1	-	-	IC50	target	-	NS5 polymerase	Bovine viral diarrhea virus	-	≤1 µM
CCCCCCCc1c(C)[nH]c2cc(OC)ccc2c1=O	-	-	IC50	host protein	absorbance	HFF	-	-	>10 µM
COc1cc2c(cc1OC)C1=C(c3ccc(OC)c(OS(=O)(=O)O)c3)C3c4cc(OC)c(OS(=O)(=O)O)cc4OC(=O)C3N1C=C2	-	-	IC50	host protein	-	Topoisomerase	Molluscum contagiosum virus	-	70 µM
COc1cc(NCc2cccc3nc(N)nc(N)c23)c(Br)c(OC)c1OC	-	-	IC50	target	-	Dihydrofolate reductase	Cryptosporidium parvum	TYPE 2	>10 µM
Cc1onc(-c2ccccc2)c1NC(=O)NCCc1ccc2c(n1)NCCC2	-	PBMC	CC50	toxicity	-	-	-	-	50 µM
COC(=O)N[C@@H](Cc1ccccc1Br)C(=O)N[C@@H](C)CCC[C@@H](CO)N(C(C)C)S(=O)(=O)c1ccc(CO)cc1	-	T lymphoid cells	CC50	toxicity	microscopy	-	-	-	>10 µM
Cc1ccnc2c1NC(=O)c1cccnc1N2C1CC1	-	-	IC50	host protein	-	DNA polymerase beta	Human	-	>24 µM
COC(=O)N[C@H](C(=O)N[C@H](CCC[C@@H](CO)N(C(C)C)S(=O)(=O)c1ccc(N)cc1)C(C)C)C(c1ccccc1)c1ccccc1	-	T lymphoid cells	CC50	toxicity	microscopy	-	-	-	>10 µM
Nc1cc(S(=O)(=O)[O-])cc2cc(S(=O)(=O)[O-])ccc12	5 µg/mL	Human embryonic lung cells	inhibition	culture	cytopathic effect	-	Adenovirus	TYPE 3	0%
COc1cc(NCc2csc3nc(N)nc(N)c23)cc(OC)c1OC	-	-	IC50	target	-	Dihydrofolate reductase	Cryptosporidium parvum	TYPE 1	>10 µM
O=c1[nH]c(=O)n([C@@H]2O[C@H](CO)[C@@H](O)[C@@H]2O)cc1/C=C/Br	0.001 µg/mL	HELF	inhibition	culture	plaque count	-	Varicella zoster virus	Kawaguchi	100%
COC(=O)N[C@H](C(=O)N[C@H](CCC[C@@H](CO)N(CCC(C)C)S(=O)(=O)c1ccc(CO)cc1)C(C)C)C(c1ccccc1)c1ccccc1	-	T lymphoid cells	CC50	toxicity	microscopy	-	-	-	>10 µM
O=C(Cn1c(-c2nccs2)nc2ccccc21)Nc1ccc(Cl)c(Cl)c1	2 µM	-	inhibition	host protein	fluorescence / absorbance	IMPDH2	Human	-	≤20%
FC(F)(F)c1ccc(-c2cncc(N3CCN(c4cnccn4)CC3)n2)cc1	-	-	IC50	target	-	UL97 kinase	Cytomegalovirus	-	<10 µM
O=c1c2[nH]cnc2ncn1CCNCCP(=O)(O)O	-	-	Ki	host protein	absorbance	Hypoxanthine-guanine phosphoribosyltransferase	Human	-	40 µM
O=c1[nH]c(=O)n([C@H]2C[C@H](O)[C@@H](CO)O2)cc1I	10 µg/mL	HELF	inhibition	culture	plaque count	-	Varicella zoster virus	Asahikawa	100%
CCOC(=O)c1cc(-c2ccc(C=C3SC(=S)N(CC(=O)O)C3=O)o2)ccc1Cl	-	-	IC50	target	-	NS5 polymerase	Bovine viral diarrhea virus	-	≤1 µM
O=S(=O)([O-])c1cc(S(=O)(=O)[O-])c2cc(NS(=O)(=O)c3ccccc3)ccc2c1	5 µg/mL	Human amnion AV3 cells	inhibition	culture	cytopathic effect	-	Herpes simplex virus	-	0%
COC(=O)N[C@H](C(=O)N[C@H](CCC[C@@H](CO)N(CCC(C)C)S(=O)(=O)c1ccc(N)c(F)c1)C1CC1)C(c1ccccc1)c1ccccc1	-	T lymphoid cells	CC50	toxicity	microscopy	-	-	-	>10 µM
O=c1[nH]c(=O)n([C@H]2C[C@H](O)[C@@H](CO)O2)cc1/C=C/Br	0.1 µg/mL	HELF	inhibition	culture	plaque count	-	Varicella zoster virus	Asahikawa	100%
CCO/N=C/c1ccc(OCCC2CCN(c3ccc(Cl)nn3)CC2)cc1	-	KB	EC50	culture	neutral red	-	Rhinovirus	50-525-CV54 (ICAM-1 receptor group 85)	0.01 µM
CSc1ccc(-c2cnc(N)c(N3CCN(c4ccncc4)CC3)n2)cc1	-	-	IC50	target	-	UL97 kinase	Cytomegalovirus	-	<1 µM
C=CCc1ccc(O)c(OC)c1	-	-	MIC90	culture	turbidity	-	Candida tropicalis	2804	475 µg/mL
O=C(O)CCN1C(=O)C(=Cc2ccc(N3C=Cc4ccccc4C3)o2)SC1=S	-	-	IC50	target	-	NS5 polymerase	Bovine viral diarrhea virus	-	≤1 µM
COc1ccc(N2CCN(c3cncc(-c4cccc(OC)c4OC)n3)CC2)cc1OC	10 µM	-	inhibition	target	-	UL97 kinase	Cytomegalovirus	-	>15%
CC[C@@H](CCC[C@@H](CO)N(C(C)C)S(=O)(=O)c1ccc(CO)cc1)NC(=O)[C@@H](NC(=O)OC)C(c1ccccc1)c1ccccc1	-	T lymphoid cells	CC50	toxicity	microscopy	-	-	-	>10 µM
Cc1ccc(-c2ccc(C=C3SC(=S)N(c4ccc(C(=O)O)cc4)C3=O)o2)cc1C	-	-	IC50	target	-	NS5 polymerase	Bovine viral diarrhea virus	-	≤1 µM
O=c1cc(-c2cccc(-c3cccc(CNCc4ccccc4)c3)c2)c2cccnc2n1O	-	HeLa	CC50	toxicity	-	-	-	-	<100 µM
[N-]=[N+]=Nc1ccc(C(=O)CSc2nc3c(ncn3[C@H]3C[C@H](O)[C@@H](COP(=O)(O)OP(=O)(O)OP(=O)(O)O)O3)c3nccn23)cc1	-	-	Ki	host protein	radiometric	DNA polymerase I	Escherichia coli	-	78 µM
Fc1cccc(C2CN(c3ccccn3)CCN2c2cnccn2)c1	-	-	IC50	target	-	UL97 kinase	Cytomegalovirus	-	<100 µM
Cc1cc(CCCOc2c(C)cc(-c3noc(C(F)(F)F)n3)cc2C)on1	-	OHIO HELA-I	EC50	culture	cytopathic effect / visual reading	-	Rhinovirus	Isolate 16	<0.01 µg/mL
O=C(O)CCN1C(=O)C(=Cc2ccc(-c3ccc(Cl)cc3)o2)SC1=S	-	-	IC50	target	-	NS5 polymerase	Bovine viral diarrhea virus	-	≤1 µM
C[C@@H](NC(=O)NCCc1ccc2c(n1)NCCC2)c1ccc2ccccc2c1	-	PBMC	CC50	toxicity	-	-	-	-	50 µM
Cc1cn([C@@H]2O[C@H](CO)[C@@H](O)[C@@H]2F)c(=O)nc1N	0.001 µg/mL	HELF	inhibition	culture	plaque count	-	Varicella zoster virus	OKA	3%
COc1cccc(-c2cncc(N3CCN(c4ccncc4)CC3)n2)c1	1 µM	-	inhibition	target	-	UL97 kinase	Cytomegalovirus	-	<50%
CCc1cn([C@@H]2O[C@H](CO)[C@@H](O)[C@@H]2O)c(=O)[nH]c1=O	100 µg/mL	HELF	inhibition	culture	plaque count	-	Varicella zoster virus	Asahikawa	38%
COc1c(-c2ccc3cc(NS(C)(=O)=O)ccc3c2)cc(-n2ccc(=O)[nH]c2=O)cc1C(C)(C)C	-	-	IC50	host protein	-	Bovine terminal deoxynucleotidyl transferase	-	-	>100 µM
Clc1cccc(N2CCN(c3cncc(-c4ccoc4)n3)CC2)c1	-	-	IC50	target	-	UL97 kinase	Cytomegalovirus	-	<10 µM
CCC(CC)O[C@@H]1C=C(C(=O)O)C[C@H](N)[C@H]1NC(C)=O	-	MDCK	EC50	culture	visual reading	-	Influenza A virus	Influenza A/Victoria/3/75 (H3N2)	0.06 µM
CSc1ccc(-c2cncc(N3CCN(c4ccc(C)cc4)CC3)n2)cc1	1 µM	-	inhibition	target	-	UL97 kinase	Cytomegalovirus	-	<50%
CN[C@H](C(=O)N[C@H](CCC[C@@H](CO)N(CCC(C)C)S(=O)(=O)c1ccc(CO)cc1)C(C)C)C(c1ccccc1)c1ccccc1	-	T lymphoid cells	CC50	toxicity	microscopy	-	-	-	>10 µM
Nc1ccc2cc([N+](=O)[O-])cc(S(=O)(=O)[O-])c2c1	50 µg/mL	Human embryonic lung cells	inhibition	culture	cytopathic effect	-	Rhinovirus	-	10%
Fc1ccccc1N1CCN(c2cncc(-c3cccc4ccccc34)n2)CC1	10 µM	-	inhibition	target	-	UL97 kinase	Cytomegalovirus	-	>15%
O=C(NCCc1ccc2c(n1)NCCC2)Nc1ccc2nc(C(F)(F)F)[nH]c2c1	-	PBMC	CC50	toxicity	-	-	-	-	50 µM
O=C(Nc1ccc(S(=O)(=O)[O-])c2cccc(S(=O)(=O)[O-])c12)c1ccccc1	50 µg/mL	Human amnion AV3 cells	inhibition	culture	cytopathic effect	-	Herpes simplex virus	-	0%
O=C(Cn1c(-c2cscn2)nc2ccccc21)Nc1ccc(Cl)cc1	-	-	IC50	host protein	fluorescence / absorbance	IMPDH2	Human	-	≥20 µM
CN(Cc1ccc2nc(N)nc(N)c2n1)c1ccc(C(=O)NC2CCCCC2)cc1	-	-	IC50	target	-	Dihydrofolate reductase	Cryptosporidium parvum	TYPE 1	4.7 µM
O=c1c(Br)c(O)c2cc(-c3ccncc3)cnc2n1O	-	HeLa	CC50	toxicity	-	-	-	-	<100 µM
CN[C@H](C(=O)C[C@H](CCC[C@@H](CO)N(C(C)C)S(=O)(=O)c1ccc(N)cc1)C(F)(F)F)C(c1ccccc1)c1ccccc1	-	T lymphoid cells	CC50	toxicity	microscopy	-	-	-	>10 µM
O=C(O)CN1C(=O)C(=Cc2ccc(-c3ccc(Cl)c(Cl)c3)s2)SC1=S	-	-	IC50	target	-	NS5 polymerase	Bovine viral diarrhea virus	-	≤1 µM